Laboratory results reported in PMC4089486, “Structural and biochemical analyses of alanine racemase from the multidrug-resistant Clostridium difficile strain 630” (Acta Crystallographica Section D: Biological Crystallography, 2014).

What was measured:
C[C@H](N)C(=O)O = test: purified protein; details: L-Ala to D-Ala, 50 mM sodium borate pH 8.5
C[C@@H](N)C(=O)O = test: purified protein; details: D-Ala to L-Ala, 50 mM sodium borate pH 8.5

CdAlr (C. difficile alanine racemase; CdAlrWT) (Clostridioides difficile 630; K271T)
Km (C[C@H](N)C(=O)O): 13.8 mM | kcat (C[C@H](N)C(=O)O): 3280 s⁻¹ | Km (C[C@@H](N)C(=O)O): 5.4 mM | Vmax (C[C@@H](N)C(=O)O): 1800 µmol/min/mg | kcat (C[C@@H](N)C(=O)O): 1300 s⁻¹
